Reference: article PMC3116866
The exact form of at least one protein or probe is not confirmed.

By UniProt entry, the sequences of proteins in these tests, tags left out. Where a name states a change or a piece, a line headed by the entry shows the natural chain unless it says otherwise.
UniProt P9WGL9: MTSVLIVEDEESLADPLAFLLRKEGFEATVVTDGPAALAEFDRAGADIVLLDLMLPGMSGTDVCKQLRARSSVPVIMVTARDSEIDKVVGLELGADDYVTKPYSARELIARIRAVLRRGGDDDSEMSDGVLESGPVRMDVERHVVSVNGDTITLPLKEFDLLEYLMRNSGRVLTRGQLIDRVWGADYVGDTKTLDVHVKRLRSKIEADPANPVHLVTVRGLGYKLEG

The sequences below were run against RegX3~P (phosphorylated by EnvZ) (Mycobacterium tuberculosis) (UniProt P9WGL9) (assay: EMSA). Settings: recombinant protein; residues 1-227; protein details: His tag (pET19b, Ni-NTA); label: FITC; probe letters rebuilt from the primers and the genome; part of a longer molecule.

Sequence	binding result
GACGGTGGTGATACCGAACTGCCACCGCGAAATGTCGACGACATTCATCTGTCATCTCCGGAGATACTACGGGGCCGACTGATTTGGCTACGACGAAGTGTAGTAGGCACGAGTGGGCCCGCGCTACTGGCAATCGTGGGTGCACCGCGATTCTGCGGTCAGCCGAGCGTCTGCGAAGCCTTGCGGATGGCGAACGACGACGCGATCTCGCATGTGCCGATCACCACGAGCCAGAT (double strand) [PcydAB (PcydB)]	binds
GGTGATAGCCGAGCCCTCTCCGGCACCTGCCTGGATGAGCACCTCATGGCCACGACGGGTTAGTTCCGCGACGCCGGCCGGGGTGATGGCCACCCGGAATTCGTTGTTTTTGGTCTCGGTCGGAATACCGACGCGCATGATTACCCCTCTCGATACTGTACGCTTCAGTATGAAGAAAGTTCGATTAATCTGCAAGATTGCTGATGATAATTCTTTTTCGAGGCCATATGC (double strand) [Pald]	binds
ACGAGATCGGTAGCCCTCTAGTTCCTCGGTGGCGGCGCGCAACCGGCGGTGCACGGCAACCAGGCTGTGGCCGACCTCGGGCATCCGGGCGACGAATTCTTCGATCTGGGCGCCGCTGACCGCGTGCTCGACGCCGATGTCGGTGAAGACGTCGGACAGGTCGGCCACCAACCGTGCGTCGGAATCCGAGGAGAAATACTGCGCCGACAGGTCAAACCGCTCGGTAAGCAGAAGCAGCACGGGCACGGTGATGGGCCGCTGGTCATTCTCCAACTGGTTGACATAGCTTGTGGATAAGTCCAGGGCCTTGGCCAGCGCCACCTGGGTGAGCCCGCGCTCTTGACGTAACCGCCGCAGGCGGGCACCGGAAAACGTCCTCGAATACGTCCTAGCCACCGGTAAGACATTACTCCGCGTCATGTTCGCAAAATTTGCAAAATGTGCCGGATCAGGACACAAAAGTACGCTTTTTCAGGGTCTTTTGTTGGTGTCCTGTGCTGC (double strand) [PgltA1]	binds
